From patent US6514997B2, “Antipicornaviral compounds and compositions, their pharmaceutical uses, and materials for their synthesis” (Agouron Pharmaceuticals, Inc., priority 1999, dated 2003) come the findings set out here.

The series has as its system HRV-14. In words: Antirhinoviral H1-HeLa cell culture assay (XTT cell protection, EC50), HRV-14. The class given is cell-based, human rhinovirus (HRV) serotype-14 in H1-HeLa cells. The protocol: Antirhinoviral H1-HeLa Cell Culture Assay:
In this cell protection assay, the ability of compounds to protect cells against HRV infection was measured by the XTT dye reduction method, which is described in Weislow et al., J. Natl. Cancer Inst. […] H1-HeLa cells were infected with HRV-14 at a multiplicity of infection (m.o.i.) of 0.13 (virus particles/cell) or mock-infected with medium only. Infected or mock-infected cells were resuspended at 8×10^5 cells per mL, and incubated with appropriate concentrations of the compounds to be tested. Two days later, XTT/PMS was added to test plates and the amount of formazan produced was quantified spectrophotometrically at 450/650 nm. […] The therapeutic index (TI) was calculated by dividing the CC50 value by the EC50 value.
All strains of human rhinovirus (HRV) for use in this assay were purchased from American Type Culture Collection (ATCC), except for HRV serotype-14 (produced from the infectious cDNA clone constructed by Dr. Robert Rueckert, Institute for Molecular Virology, University of Wisconsin, Madison, Wis.). HRV stocks were propagated and viral assays were performed in H1-HeLa cells (ATCC). Cells were grown in minimal essential medium with 10% fetal bovine serum, available from Life Technologies (Gaithersburg, Md.).
In general terms: Tetrazolium assays rely on reduction of a dye to a coloured formazan, in cell work by metabolically active cells.
With `CCOC(=O)/C=C/[C@H](C[C@@H]1CCNC1=O)NC(=O)Cn1cccc(NC(=O)c2cc(C)on2)c1=O` [Compound 22, trans-(4S,3″″S)-4-(2′-{3″-[(5′″-Methylisoxazole-3′″-carbonyl)amino]-2″-oxo-2″H-pyridin-1″-yl}acetylamino)-5-(2″″-oxopyrrilidin-3″″-yl)pent-2-enoic Acid Ethyl Ester], the TI was more than 10.

`O=C1OCC/C1=C\[C@H](C[C@@H]1CCNC1=O)NC(=O)[C@H](Cc1ccc(F)cc1)n1cccc(NC(=O)c2cc(Cl)on2)c1=O` [Compound 23, trans-(2″S,2″S,3″″″S)-5-Chloroisoxazole-3-carboxylic Acid (1′-{2″-(4′″-fluorophenyl)-1″-[2″″-(2′″″-oxodihydrofuran-3′″″-ylidene)-1″″-(2″″″-oxopyrrolidin-3″″″-ylmethyl)ethylcarbamoyl]ethyl}-2′-oxo-1′,2′′-dihydropyridin-3′-yl)amide] returned a TI of more than 156.

The compound `CCOC(=O)/C=C/[C@H](CCC(N)=O)NC(=O)[C@H](Cc1ccccc1)n1cccc(NC(=O)c2cc(Cl)on2)c1=O` [Compound 30, trans-(2′S,4S)-6-Carbamoyl-4-(2′-{3″-[(5′″-chloroisoxazole-3′″-carbonyl)amino]-2″-oxo-2″H-pyridin-1″-yl}-3′-phenylpropionylamino)hex-2-enoic Acid Ethyl Ester] came in with a TI of more than 416.

As to `CCOC(=O)/C=C/[C@H](CCC(N)=O)NC(=O)[C@@H]1CCc2ccc(NC(=O)OCc3ccccc3)c(=O)n21` [Compound 36, trans-(3′S,4S)-4-[(6′-Benzyloxycarbonylamino-5′-oxo-1′,2′,3′,5′-tetrahydroindolizine-3′-carbonyl)amino]-6-carbamoylhex-2-enoic Acid Ethyl Ester], the TI is on record as more than 11.

Take `Cc1cc(C(=O)Nc2ccc3n(c2=O)[C@H](C(=O)N[C@H](/C=C2\CCOC2=O)C[C@@H]2CCNC2=O)CC3)no1` [Compound 38, trans-(2″S,3S,3′″S)-6-[(5′-Methylisoxazole-3′-carbonyl)amino]-5-oxo-1,2,3,5-tetrahydroindolizine-3-carboxylic Acid [2″-(2′″-oxodihydrofuran-3′″-ylidene)-1″-(2″″-oxopyrrolidin-3″″-ylmethyl)ethyl]amide]: the TI is recorded as more than 6.

For the compound `Cc1cc(CCCCCCCOc2ccc(C3=NCCO3)cc2)on1` [WIN 51711, reference compound], the TI is more than 77.

Consider `Cc1cc(CCCCCCCOc2ccc(C3=N[C@@H](C)CO3)cc2)on1` [WIN 52084, reference compound], for which the TI is recorded as more than 143.

The compound `Cc1cc(CCCCCOc2c(Cl)cc(C3=NCCO3)cc2Cl)on1` [WIN 54954, reference compound] displayed a TI of more than 30.
